Measured values: US20100016224

Legend:
[1] = biological target: Myc-tagged DDX3 (full length), human, O00571 1-662; experiment: immunoprecipitation, DDX3-Myc and HA-tagged K7 mutants
[2] = biological target: His-tagged DDX3 102-408, human, O00571 102-408; experiment: His-DDX3 Ni-Agarose pulldown from lysate with ΔK7-HA
[3] = biological target: His-tagged DDX3 409-662, human, O00571 409-662; experiment: as above
[4] = biological target: His-tagged DDX3 22-408, human, O00571 22-408; experiment: as above
[5] = biological target: His-tagged full length DDX3 (amino acids 1-662), human, O00571 1-662; experiment: as above
[6] = biological target: His-tagged DDX3 139-408, human, O00571 139-408; experiment: as above
[7] = biological target: His-tagged DDX3 1-408, human, O00571 1-408; experiment: as above
[8] = biological target: Myc-tagged DDX3 1-408, human, O00571 1-408; experiment: co-immunoprecipitation, HEK293T cells, Myc-DDX3 1-408 and ΔK7-HA

HA-tagged K7R N-terminal truncation mutant 41-149
result [1]: no binding

HA-tagged K7R truncation mutant 1-123
result [1]: no binding

HA-tagged ΔK7R (K7 truncation mutant, aa 1-108)
result [2]: no binding | result [3]: no binding | result [4]: no binding | result [5]: no binding | result [6]: no binding | result [7]: no binding | result [1]: no binding | result [8]: no binding

HA-tagged K7R truncation mutant 1-93
result [1]: no binding
